In this assay the test system is Burkholderia pseudomallei. As to the kind of experiment: Antibacterial activity against Burkholderia pseudomallei 1026b infected in BALB/c mouse assessed as cure rate at 25 mg/kg, ip administered 6 hrs postinfection at 12 hrs interval for 3 days measured on day 3 in presence of IFN-gamma-harboring cationic liposome-DNA complex. The settings on record: route intraperitoneal.

Our source for the Activity values is ChEMBL document CHEMBL1255439 (2010).

Regarding `CC(C)(O/N=C(\C(=O)N[C@@H]1C(=O)N2C(C(=O)[O-])=C(C[n+]3ccccc3)CS[C@H]12)c1csc(N)n1)C(=O)O`, the Activity was determined as 40%.
